Measured values from several laboratories, pooled; numbers as filed in NIAID ChemDB.

All rows: whole-cell or culture tests; agent: Mycobacterium tuberculosis

MIC bound comes from a single tested concentration. ECn: concentration that inhibits the pathogen or its effect by n%. Percent inhibition refers to the dose given; in toxicity tests it is the harm to the cells. MIC50, MIC90 and the like: level of inhibition, or share of isolates inhibited. Rows are shuffled and stem from different studies. Blank or dashed fields: not listed here.

SMILES,read-out,cells,strain or isolate,conditions,method,mutations,tested at,result
NNC(=O)Cc1cc(C2C3CC4CC(C3)CC2C4)nc2ccccc12,inhibition,-,H37Ra,-,BACTEC,-,6.25 µg/mL,31%
COc1ccccc1/C=N/N=C(/N)c1ccccn1,MIC,-,H37Rv,-,-,-,-,16 µg/mL
Nc1cc(C(=O)O)ccc1SSc1ccc(C(=O)O)cc1N,MIC bound,-,H37Rv,-,BACTEC,-,-,>6.25 µg/mL
CO/N=C(/CN1CCN(c2cc3c(cc2F)c(=O)c(C(=O)O)cn3C2CC2)CC1)c1cccs1,inhibition,-,H37Rv,-,-,-,6.25 µg/mL,99%
c1ccc(Nc2nc(-c3ccncn3)cs2)nc1,MIC,-,H37Rv,-,visual reading,-,-,15 µM
CCOC(=O)c1c(-c2ccccc2)csc1N,MIC bound,-,H37Rv,-,BACTEC,-,-,>12.5 µg/mL
CCn1cc(C(=O)O)c(=O)c2cc(F)c(N3CCN(CC(=O)c4cccs4)CC3)cc21,inhibition,-,H37Rv,-,-,-,6.25 µg/mL,41%
COc1ccc2oc(=S)n(-c3ccc(C)cc3)c(=S)c2c1,MIC,-,My 331/88,14 d,-,-,-,8 µM
CC(C)(C)OC(=O)N[C@@H](CO)C(=O)N/N=C/c1ccc(C#N)cc1,MIC,-,H37Rv,-,resazurin,-,-,>100 µg/mL
NNC(=O)c1c(C2CCCCC2)nc2ccccc2c1C1CCCCC1,inhibition,-,H37Ra,-,BACTEC,-,6.25 µg/mL,44%
CN1CCN(Cc2ccc(NC(=O)c3ccc(Cl)cc3)cc2)CC1,MIC,-,103471,-,-,-,-,8 µg/mL
Cc1c(N2C[C@@H](N)C3(CC3)C2)c(F)c(N)c2c(=O)c(C(=O)O)cn(C3CC3)c12,MIC50,-,27 strains (levofloxacin-susceptible),-,-,-,-,0.78 µg/mL
NNC(=O)c1cc(C2C3CC4CC(C3)CC2C4)nc2ccccc12,MIC,-,H37Ra,-,BACTEC,-,-,>6.25 µg/mL
COc1c2c(cc3ccc(=O)oc13)C(Cl)C(Cl)O2,MIC bound,-,H37Rv,-,BACTEC,-,-,>12.5 µg/mL
Cc1cc(C2CCCC2)nc2c(C3CCCC3)cccc12,inhibition,-,H37Ra,-,BACTEC,-,6.25 µg/mL,100%
COc1cc(C)cc2c1c[n+]1n2CCCC1.[OH-],MIC,-,H37Rv,-,agar,-,-,32 µg/mL
CC(C)(C)OC(=O)N[C@@H](CO)C(=O)N/N=C/c1ccccc1,MIC,-,H37Rv,-,resazurin,-,-,>100 µg/mL
O=C(CN1CCN(c2cc3c(cc2F)c(=O)c(C(=O)O)cn3C2CC2)CC1)c1ccco1,MIC,-,H37Rv,-,-,-,-,0.78 µg/mL
CC(C)(C)OC(=O)N[C@@H](CO)C(=O)N/N=C/c1cccc([N+](=O)[O-])c1,MIC,-,H37Rv,-,resazurin,-,-,>100 µg/mL
C[C@@H]1OC(O[C@H]2C(O[C@H]3CC[C@@]4(C)C(CC[C@]5(C)C4CC=C4C6CC(C)(C)CC[C@]6(C(=O)O)CC[C@]45C)[C@]3(C)CO)OC[C@H](O)[C@@H]2O)[C@H](O)[C@H](O)[C@H]1O,MIC,-,H37Rv,-,-,-,-,>1000 µg/mL
NNC(=O)c1cc(C2CCCC2)c2ccccc2n1,MIC,-,H37Ra,-,BACTEC,-,-,>6.25 µg/mL
C=CCO/N=C/c1cc(NC(=S)c2ccoc2C)ccc1Cl,MIC bound,-,H37Rv,-,BACTEC,-,-,≤12.5 µg/mL
COc1ccccc1/C=N/NC(=O)[C@H](CO)NC(=O)OCc1ccccc1,MIC,-,H37Rv,-,resazurin,-,-,>100 µg/mL
NNC(=O)c1ccncc1,MIC50,-,22 strains (rifampin- isoniazid-resistant),-,-,-,-,12.5 µg/mL
Cc1ccc(-n2c(=S)oc3ccc(C)cc3c2=S)cc1,MIC,-,My 331/88,14 d,-,-,-,0.5 µM
CC(C)=CCOc1c2ccoc2cc2oc(=O)ccc12.NNC(=O)c1ccncc1,MIC100,-,H37Rv clinical isolate CRY3,-,agar,Isoniazid- and rifampicin-resistant,-,3.12 µg/mL
N/C(=N/N=C/c1ccccc1Cl)c1ccccn1,MIC,-,H37Rv,-,-,-,-,8 µg/mL
CN1CCN(Cc2ccc(NC(=O)/C=C/c3ccccc3)cc2)CC1,MIC,-,103471,-,-,-,-,8 µg/mL
CCCCN(CCCC)CCNc1ccc(C)c2sc3cc(C)ccc3c(=O)c12,inhibition,-,H37Rv,-,BACTEC,-,12.5 µg/mL,95%
NNC(=O)Cc1ccnc2ccccc12,inhibition,-,H37Ra,-,BACTEC,-,6.25 µg/mL,9%
O=C(COc1ccc2ccccc2c1)Nn1c(-c2ccccc2)ccc1-c1ccccc1,inhibition,-,H37Rv (ATCC 27294),-,resazurin,-,100 µg/mL,97%
COc1ccc(NC(=O)c2cc(C3C4CC5CC(C4)CC3C5)c3ccccc3n2)cc1,MIC,-,H37Ra,-,BACTEC,-,-,>6.25 µg/mL
N/C(=N/N=C/c1ccccc1Br)c1ccccn1,MIC,-,H37Rv,-,-,-,-,8 µg/mL
CCOC(=O)CN1C(=O)C(=O)N(c2ccc(OC)c3ccccc23)C1=O,inhibition,-,H37Rv,-,BACTEC,-,12.5 µg/mL,0%
Cc1cccc(C)c1Nc1cc(-c2ccccn2)ncn1,MIC,-,H37Rv,-,visual reading,-,-,>20 µM
NNC(=O)c1cc(C2CCCCC2)c2c(C3CCCCC3)cccc2n1,inhibition,-,H37Ra,-,BACTEC,-,6.25 µg/mL,91%
CCOC(=O)c1cn(C)c2c(cc([N+](=O)[O-])c3cccnc32)c1=O,MIC90,-,BCG,-,-,-,-,2.35 µM
N#Cc1ccc(/C=N/NC(=O)[C@H](CO)NC(=O)OCc2ccccc2)cc1,MIC,-,H37Rv,-,resazurin,-,-,>100 µg/mL
NC(=O)c1ccc[n+](CC(=O)O)c1.[Br-],inhibition,-,H37Rv,-,BACTEC,-,12.5 µg/mL,10%
CC(C)(C)OC(=O)N[C@@H](CO)C(=O)N/N=C/c1cccc(O)c1O,MIC,-,H37Rv,-,resazurin,-,-,>100 µg/mL
CSC(=S)N/N=C(/C)c1ccco1,MIC,VERO,H37Rv,-,-,-,-,3.2 µg/mL
CC(=O)OCC(=O)Nc1nc(-c2ccccn2)cs1,MIC,-,H37Rv,-,visual reading,-,-,>20 µM
Cc1ccc(-c2ccccc2)n1NC(=O)c1ccncc1,inhibition,-,H37Rv (ATCC 27294),-,resazurin,-,100 µg/mL,100%
NNC(=O)C(Cc1cnc[nH]1)NC(=O)CNC(=O)OCc1ccccc1,inhibition,-,H37Rv,-,BACTEC,-,12.5 µg/mL,9%
NCC[C@H](O)C(=O)N[C@@H]1C[C@H](N)[C@@H](O[C@H]2O[C@H](CN)[C@@H](O)[C@H](O)[C@H]2O)[C@H](O)[C@H]1O[C@H]1O[C@H](CO)[C@@H](O)[C@H](N)[C@H]1O,Mean MIC,-,H37Rv,-,-,-,-,0.42 µg/mL
CCOP(=O)(Cc1ccc(CP(=O)(OCC)OCC)n1C)OCC,inhibition,-,H37Rv,-,BACTEC,-,6.25 µg/mL,32%
COc1c(N2CCNC(C)C2)c(F)cc2c(=O)c(C(=O)O)cn(C3CC3)c12,MIC90,-,23 strains (rifampin- isoniazid-susceptible),-,-,-,-,0.2 µg/mL
N/C(=N\N=C\c1ccc(Cl)c(Cl)c1)c1ccccn1,MIC,-,H37Rv,-,-,-,-,256 µg/mL
Cc1ccc(-c2ccccc2)n1NC(=O)C1=C(Cl)CC(Cl)C=C1,inhibition,-,H37Rv (ATCC 27294),-,resazurin,-,100 µg/mL,100%
CCn1cc(C(=O)O)c(=O)c2cc(F)c(N3CCN(C/C(=N/O)c4ccco4)CC3)cc21,MIC,-,H37Rv,-,-,-,-,>6.25 µg/mL
O=C(N[C@@H](CO)C(=O)N/N=C/c1cccc([N+](=O)[O-])c1)OCc1ccccc1,MIC,-,H37Rv,-,resazurin,-,-,25 µg/mL
Cc1onc(-c2ccccc2Cl)c1C(=O)N[C@@H]1C(=O)N2[C@@H]1SC(C)(C)[C@@H]2C(=O)O,Median MIC,-,H37Rv,-,-,-,-,>256 µg/mL
COc1ccc(OC)c(/C=N/N=C(\N)c2ccccn2)c1,MIC,-,H37Rv,-,-,-,-,256 µg/mL
COc1ccc2c(c1)[n+]([O-])c(C(N)=O)c(N)[n+]2[O-],MIC,-,TAC-R,-,-,-,-,6.3 µg/mL
Nc1ccc(C(=O)O)c(O)c1,Mean MIC,-,H37Ra,-,-,-,-,1.34 µg/mL
O=C(ON=C1C=CC(=NOC(=O)c2ccccc2)C=C1)c1ccccc1,MIC bound,-,H37Rv,-,BACTEC,-,-,>12.5 µg/mL
COc1ccc(/C=C/C(=O)c2ccncc2)cc1,EC90,-,H37Rv,-,resazurin,-,-,≥50 µg/mL
O=C(Nn1c(-c2ccccc2)ccc1-c1ccccc1)c1ccncc1,MBC,-,H37Rv (ATCC 27294),-,turbidity,-,-,4.4 µg/mL
CCOC(=O)c1cn(CC)c2c(cc([N+](=O)[O-])c3cccnc32)c1=O,MIC90,-,H37Rv,-,-,gyrA mutation A90V,-,>50 µM
NC(=N\N=C(/c1ccccc1)c1ccc(N)cc1)/C(N)=N/N=C(\c1ccccc1)c1ccc(N)cc1,MIC bound,-,H37Rv,-,BACTEC,-,-,>12.5 µg/mL
COc1cc(C(C)C)c(O[C@@H]2O[C@H](CO)[C@@H](O)[C@H](O)[C@H]2O)cc1C,MIC,-,H37Rv,-,agar,-,-,62.5 µg/mL
N[C@@H]1CONC1=O,Median MIC,-,H37Ra,-,-,-,-,19 µg/mL
S=C(S)Nc1ccccc1,MIC bound,-,H37Rv,-,BACTEC,-,-,>12.5 µg/mL
NC[C@H]1O[C@H](O[C@H]2[C@H](O)[C@@H](O[C@H]3O[C@H](CO)[C@@H](O)[C@H](N)[C@H]3O)[C@H](N)C[C@@H]2N)[C@H](N)C[C@@H]1O,Mean MIC,-,H37Ra,-,-,-,-,10 µg/mL
Cn1c([N+](=O)[O-])cnc1CSC(=S)N1CCN(C(=S)SCc2ncc([N+](=O)[O-])n2C)CC1,inhibition,-,H37Rv,-,BACTEC,-,128 µg/mL,94%
O=C(/C=C/c1ccc(F)cc1)c1ccncc1,EC90,-,H37Rv,-,resazurin,-,-,≥50 µg/mL
O=C1c2ccccc2CN(c2ccccc2)C(=Nc2ccccc2)N1c1ccccc1,MIC bound,-,H37Rv,-,BACTEC,-,-,>12.5 µg/mL
CN1CCN(Cc2ccccc2NC(=O)c2ccc(Cl)cc2)CC1,MIC,-,103471,-,-,-,-,>16 µg/mL
Cc1ccc2oc(=S)n(-c3ccc(Br)cc3)c(=S)c2c1,MIC,-,My 331/88,14 d,-,-,-,0.5 µM
O=C(/C=C/c1ccccc1)Nc1cccc(CN2CCOCC2)c1,MIC,-,103471,-,-,-,-,8 µg/mL
O=c1oc2ccc(Br)cc2c(=S)n1-c1ccc(Cl)cc1,MIC,-,My 331/88,21 d,-,-,-,1 µM
c1ccc(Nc2nc(-c3ccn[nH]3)cs2)nc1,MIC,-,H37Rv,-,visual reading,-,-,20 µM
CC(C)(C)OC(=O)N[C@@H](CO)C(=O)N/N=C/c1ccc([N+](=O)[O-])cc1,MIC,-,H37Rv,-,resazurin,-,-,>100 µg/mL
Cc1cc(N=Nc2c(N)c(C)cc(N=Nc3ccc(C(N)=O)cc3)c2N)ccc1N=Nc1cc(C(=O)O)c(O)c(S(=O)(=O)O)c1,inhibition,-,H37Rv,-,resazurin,-,6.25 µg/mL,35%
CC[C@H]1OC(=O)[C@H](C)[C@@H](O[C@H]2C[C@@](C)(OC)[C@@H](O)[C@H](C)O2)[C@H](C)[C@@H](O[C@@H]2O[C@H](C)C[C@H](N(C)C)[C@H]2O)[C@](C)(OC)C[C@@H](C)C(=O)[C@H](C)[C@@H](O)[C@]1(C)O,Median MIC,-,H37Rv,-,-,-,-,32 µg/mL
O=C1C2=C(Nc3ccccc3N2)OC1c1ccncc1,inhibition,-,H37Rv,-,BACTEC,-,12.5 µg/mL,-4%
COc1ccc2oc(=O)n(-c3ccc(Cl)c(Cl)c3)c(=S)c2c1,MIC,-,My 331/88,21 d,-,-,-,32 µM
N/C(=N/N=C/c1cccc(F)c1)c1ccccn1,MIC,-,H37Rv,-,-,-,-,128 µg/mL
COc1ccc(/C=C/C(=O)c2ccncc2)cc1OC,EC90,-,H37Rv,-,resazurin,-,-,≥50 µg/mL
O=c1oc2ccc(Cl)cc2c(=S)n1-c1ccc(F)cc1,MIC,-,My 331/88,21 d,-,-,-,4 µM
Cc1ccc(Nc2nc(N)nc(N)c2N=O)cc1Cl,MIC bound,-,H37Rv,-,BACTEC,-,-,>12.5 µg/mL
Cc1ccc(-n2c(=S)oc3ccc(F)cc3c2=S)cc1,MIC,-,My 331/88,14 d,-,-,-,1 µM
C=C(NC(=O)C(=C)NC(=O)c1csc(C2=N[C@@H]3c4csc(n4)[C@H]4NC(=O)c5csc(n5)[C@H]([C@](C)(O)[C@@H](C)O)NC(=O)C5CSC(=N5)/C(=C/C)NC(=O)[C@H]([C@@H](C)O)NC(=O)c5csc(n5)[C@]3(CC2)NC(=O)C(C)NC(=O)C(=C)NC(=O)C(C)NC(=O)C(C(C)CC)NC2C=Cc3c([C@H](C)O)cc(nc3[C@H]2O)C(=O)O[C@@H]4C)n1)C(N)=O,MIC,-,H37Rv,-,BACTEC,-,-,>4 µg/mL
CC(=O)O[C@H]1C[C@@]2(C)[C@@H](C[C@@H](O)[C@H]3[C@@]4(C)CC[C@@H](O)[C@@H](C)[C@@H]4CC[C@@]32C)/C1=C(\CCC=C(C)C)C(=O)O,Median MIC,-,H37Ra,-,-,-,-,4 µg/mL